Results of unrelated studies side by side (data: NIAID ChemDB).

All rows: tests in culture

Percent inhibition refers to the dose given; in toxicity tests it is the harm to the cells. Blank or dashed fields: not listed here. Zone: diameter of growth inhibition. A number after MIC or MFC names an inhibition level or a share of isolates. Lines come from different laboratories, so protocols vary.

smiles,measure,method,agent,strain,dose,conditions,changes,result
C#CCN1C(=O)C2(C3=C(CN2C)C(=O)c2ccccc2C3=O)c2ccccc21,zone,agar diffusion,Mycobacterium luteus,-,50 µg/mL,-,-,12 mm
CO[C@H]1/C=C/O[C@@]2(C)Oc3c(C)c(O)c4c(O)c(c(/C=N/N5CCN(C)CC5)c(O)c4c3C2=O)NC(=O)/C(C)=C\C=C\[C@H](C)[C@H](O)[C@@H](C)[C@@H](O)[C@@H](C)[C@H](OC(C)=O)[C@@H]1C,inhibition,-,Mycobacterium avium intracellulare,Serovar 8,0.63 µg/mL,-,-,38%
COc1c(N2CC(C)NC(C)C2)c(F)cc2c(=O)c(C(=O)O)cn(-c3ccc(F)cc3F)c12,MIC,-,Mycobacterium fortuitum,ATCC 6841,-,-,-,16 µg/mL
O=C(Nc1ccc(Br)cc1)c1cc(Cl)ccc1OP(=O)(c1ccccc1)c1ccccc1,MIC,-,Mycobacterium kansasii,My 6509/96,-,21 d,-,8 µM
CNCC1CCN(c2c(F)cc3c(=O)c(C(=O)O)cn(C4CC4)c3c2Br)C1,MIC,-,Mycobacterium fortuitum,ATCC 6841,-,-,-,≤0.03 µg/mL
O=C(Nc1ccc(Br)cc1)c1cc(Cl)ccc1OP(=O)(OCc1ccccc1)OCc1ccccc1,MIC,-,Mycobacterium kansasii,My 235/80,-,14 d,-,32 µM
CO[C@H]1/C=C/O[C@@]2(C)Oc3c(C)c(O)c4c(O)c(c5c(c4c3C2=O)NC2(CCN(CC(C)C)CC2)N=5)=NC(=O)/C(C)=C\C=C\[C@H](C)[C@H](O)[C@@H](C)[C@@H](O)[C@@H](C)[C@H](OC(C)=O)[C@@H]1C,MIC,-,Mycobacterium avium complex,242-5,-,-,-,0.125 µg/mL
COc1c(N2CC(C)NC(C)C2)c(F)cc2c(=O)c(C(=O)O)cn(C3CC3)c12,MIC,-,Mycobacterium fortuitum,ATCC 6841,-,-,-,0.06 µg/mL
Cc1cc(NS(=O)(=O)c2ccc(NC(=O)C(=O)Nc3ccc(S(=O)(=O)Nc4cc(C)on4)cc3)cc2)no1,MIC100,broth dilution / absorbance,Mycobacterium kansasii,6509/96 clinical isolate,-,14 d,-,8 µM
NNC(=S)N/N=C/c1cn(Cc2ccc(Cl)cc2)c2ccccc12,MIC100,broth dilution,Mycobacterium bovis BCG,1173P2,-,48 h,-,>500 µg/mL
CCCCCCNC(=O)Nc1ccc(S(=O)(=O)Nc2cc(C)on2)cc1,MIC100,broth dilution / absorbance,Mycobacterium kansasii,235/80,-,21 d,-,500 µM
O=C(Nc1ccccc1)c1ccccc1OP(=O)(Oc1ccccc1)Oc1ccccc1,MIC,-,Mycobacterium kansasii,My 6509/96,-,14 d,-,250 µM
NC1CCN(c2c(F)cc3c(=O)c(C(=O)O)cn(C4CC4)c3c2C(F)(F)F)C1,MIC,-,Mycobacterium fortuitum,ATCC 6841,-,-,-,0.13 µg/mL
CNC(=O)Nc1ccc(S(=O)(=O)Nc2cc(C)on2)cc1,MIC100,broth dilution / absorbance,Mycobacterium kansasii,235/80,-,14 d,-,62.5 µM
C[C@@H]1CN(c2nc3c(cc2F)c(=O)c(C(=O)O)cn3C(C)(C)C)C[C@H](C)N1,MIC,-,Mycobacterium fortuitum,ATCC 6841,-,-,-,0.03 µg/mL
COc1nc2ccc(Br)cc2cc1[C@@H](c1ccccc1)[C@@](O)(CCN(C)C)c1cccc2ccccc12,MIC,resazurin,Mycobacterium aurum,-,-,-,T125 insertion,0.04 µg/mL
O=C1c2ccccc2OP(=O)(c2ccccc2)N1c1ccccc1,MIC,-,Mycobacterium kansasii,My 235/80,-,14 d,-,500 µM
Cc1nn(-c2ccccc2)c2c1C(c1cn(-c3ccccc3)nc1-c1ccc(Cl)cc1)C1=C(NC(C)(c3cc(O)cc(O)c3)NC1=O)O2,zone,agar diffusion / agar,Mycobacterium phlei,NCIM 2240,0.1 mg/mL,-,-,2.5 mm
CCCCn1cc(/C=N/Nc2nncs2)c2ccccc21,MIC100,broth dilution,Mycobacterium bovis BCG,1173P2,-,24 h,-,3.91 µg/mL
Cc1nn(-c2ccccc2)c2c1C(c1cn(-c3ccccc3)nc1-c1ccc(F)cc1)C1=C(NC(C)(c3cc(O)c(I)cc3Cl)NC1=O)O2,zone,agar diffusion / agar,Mycobacterium phlei,NCIM 2240,0.1 mg/mL,-,-,5.8 mm
CCCCCn1cc(/C=N/NC(=S)NN)c2ccccc21,MIC100,broth dilution,Mycobacterium bovis BCG,1173P2,-,24 h,-,>500 µg/mL
COc1ccc(-c2nn(-c3ccccc3)cc2C2C3=C(NC(C)(c4cc(O)c(I)cc4Cl)NC3=O)Oc3c2c(C)nn3-c2ccccc2)cc1,MIC,agar diffusion / agar,Mycobacterium phlei,NCIM 2240,-,-,-,70 µg/mL
CN(C)c1cc(NC(=O)CNC(C)(C)C)c(O)c2c1C[C@H]1C[C@H]3[C@H](N(C)C)C(=O)C(C(N)=O)=C(O)[C@@]3(O)C(=O)C1=C2O,MIC,broth dilution,Mycobacterium massiliense,V30,-,-,-,0.125 µg/mL
CCN1CCN(c2nc3c(cc2F)c(=O)c(C(=O)O)cn3-c2ccc(F)cc2F)CC1,MIC,-,Mycobacterium fortuitum,ATCC 6841,-,-,-,0.25 µg/mL
CCNC(=O)Nc1ccc(S(=O)(=O)Nc2cc(C)on2)cc1,MIC100,broth dilution / absorbance,Mycobacterium kansasii,6509/96 clinical isolate,-,14 d,-,500 µM
Cc1ccc2c(c1)C1(C(=O)N2C)C2=C(CN1C)C(=O)c1ccccc1C2=O,zone,agar diffusion,Mycobacterium luteus,-,50 µg/mL,-,-,15 mm
O=C(Nc1ccc(Cl)cc1)c1cc(Cl)ccc1OP(=O)(OCc1ccccc1)OCc1ccccc1,MIC,-,Mycobacterium kansasii,My 6509/96,-,14 d,-,32 µM
Cc1cc(NS(=O)(=O)c2ccc(NC(=O)N(C(C)C)C(C)C)cc2)no1,MIC100,broth dilution / absorbance,Mycobacterium kansasii,235/80,-,21 d,-,250 µM
Cc1nn(-c2ccccc2)c2c1C(c1cn(-c3ccccc3)nc1-c1ccc(F)cc1)C1=C(NC(C)(c3cc(O)cc(O)c3)NC1=O)O2,MIC,agar diffusion / agar,Mycobacterium phlei,NCIM 2240,-,-,-,50 µg/mL
CN(C)[C@@H]1C(=O)C(C(N)=O)=C(O)[C@@]2(O)C(=O)C3=C(O)c4c(O)cccc4[C@@](C)(O)[C@H]3C[C@@H]12,MIC,broth dilution,Mycobacterium bolletii,-,-,-,-,>128 µg/mL
CCCCCCN1C(=O)C2(C3=C(CN2C)C(=O)c2ccccc2C3=O)c2ccccc21,MIC,agar diffusion,Mycobacterium luteus,-,-,-,-,250 µg/mL
NNC(=S)N/N=C/c1cn(Cc2cccc(F)c2)c2ccccc12,MIC100,broth dilution,Mycobacterium bovis BCG,1173P2,-,48 h,-,>500 µg/mL
CN1CC2=C(C(=O)c3ccccc3C2=O)C12C(=O)Nc1ccc(Cl)cc12,zone,agar diffusion,Mycobacterium luteus,-,50 µg/mL,-,-,12 mm
Cc1nn(-c2ccccc2)c2c1C(c1cn(-c3ccccc3)nc1-c1ccc(F)cc1)C1=C(NC(C)(c3cc(O)c(Cl)c(O)c3)NC1=O)O2,zone,agar diffusion / agar,Mycobacterium phlei,NCIM 2240,0.5 mg/mL,-,-,1.5 mm
Nc1ccc(S(=O)(=O)c2ccc(N)cc2)cc1,MBC,-,Mycobacterium ulcerans,Isolate 5143,-,-,-,2 µg/mL
CN1C(=O)C2(C3=C(CN2C)C(=O)c2ccccc2C3=O)c2ccccc21,zone,agar diffusion,Mycobacterium luteus,-,50 µg/mL,-,-,12 mm
CC[C@@H](C(=O)[C@@H](C)[C@@H](O)[C@H](C)[C@@H]1O[C@@H]([C@@H](CC)C(=O)O)CC[C@@H]1C)[C@H]1O[C@@]2(C=C[C@@H](O)[C@@]3(CC[C@@](C)([C@H]4CC[C@](O)(CC)[C@H](C)O4)O3)O2)[C@H](C)C[C@@H]1C,MIC,resazurin,Mycobacterium aurum,-,-,-,C330 deletion,0.08 µg/mL
CCOc1cc(Cc2cnc(N)nc2N)cc(OCC)c1-n1cccc1,MIC,-,Mycobacterium ulcerans,ATCC 35840,-,-,-,0.5 µg/mL

4 of the rows above, restated:

smiles | measure | method | agent | strain | dose | conditions | changes | result
CO[C@H]1/C=C/O[C@@]2(C)Oc3c(C)c(O)c4c(O)c(c(/C=N/N5CCN(C)CC5)c(O)c4c3C2=O)NC(=O)/C(C)=C\C=C\[C@H](C)[C@H](O)[C@@H](C)[C@@H](O)[C@@H](C)[C@H](OC(C)=O)[C@@H]1C | inhibition | - | Mycobacterium avium intracellulare | Serovar 8 | 0.63 µg/mL | - | - | 38%
CCOc1cc(Cc2cnc(N)nc2N)cc(OCC)c1-n1cccc1 | MIC | - | Mycobacterium ulcerans | ATCC 35840 | - | - | - | 0.5 µg/mL
CC[C@@H](C(=O)[C@@H](C)[C@@H](O)[C@H](C)[C@@H]1O[C@@H]([C@@H](CC)C(=O)O)CC[C@@H]1C)[C@H]1O[C@@]2(C=C[C@@H](O)[C@@]3(CC[C@@](C)([C@H]4CC[C@](O)(CC)[C@H](C)O4)O3)O2)[C@H](C)C[C@@H]1C | MIC | resazurin | Mycobacterium aurum | - | - | - | C330 deletion | 0.08 µg/mL
COc1ccc(-c2nn(-c3ccccc3)cc2C2C3=C(NC(C)(c4cc(O)c(I)cc4Cl)NC3=O)Oc3c2c(C)nn3-c2ccccc2)cc1 | MIC | agar diffusion / agar | Mycobacterium phlei | NCIM 2240 | - | - | - | 70 µg/mL